Human monoclonal antibodies against the spike receptor-binding domain (heavy:light variable regions). IC50 against pseudoviruses bearing the spike of naturally observed variants; lower = stronger; >10 µg/ml means not reached at the top dose. No active / inactive call. The stated detection limit is 0.0005 µg/ml; values near or below 0.001 µg/ml lie at the floor of the assay.
What was measured:
Test in all cases: pseudovirus neutralization IC50; higher = weaker neutralization
[1] = target: SARS-CoV-2 Omicron BA.1 spike pseudovirus
Procedure: (§1)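 Single-round VSV luciferase pseudovirus mixed with antibody dilutions for 1 h and put on Huh-7 cells for about a day; IC50 from the dose curve.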

[2] = target: SARS-CoV-2 Omicron BA.2 spike pseudovirus
Procedure: as §1

[3] = target: SARS-CoV-2 Omicron BA.2.75 spike pseudovirus
Procedure: as §1

[4] = target: SARS-CoV-2 Omicron BA.2.75.2 spike pseudovirus
Procedure: as §1

[5] = target: SARS-CoV-2 Omicron BA.5 spike pseudovirus
Procedure: as §1

[6] = target: SARS-CoV-2 Omicron BM.1.1.1 spike pseudovirus
Procedure: as §1

[7] = target: SARS-CoV-2 Omicron BQ.1.1 spike pseudovirus
Procedure: as §1

[8] = target: SARS-CoV-2 Omicron BR.2 spike pseudovirus
Procedure: as §1

[9] = target: SARS-CoV-2 Omicron CA.1 spike pseudovirus
Procedure: as §1

[10] = target: SARS-CoV-2 Omicron XBB spike pseudovirus
Procedure: as §1

[11] = target: SARS-CoV-2 early D614G spike pseudovirus
Procedure: as §1

Row | Binder | pseudovirus neutralization IC50 [1] [µg/mL] | pseudovirus neutralization IC50 [2] [µg/mL] | pseudovirus neutralization IC50 [3] [µg/mL] | pseudovirus neutralization IC50 [4] [µg/mL] | pseudovirus neutralization IC50 [5] [µg/mL] | pseudovirus neutralization IC50 [6] [µg/mL] | pseudovirus neutralization IC50 [7] [µg/mL] | pseudovirus neutralization IC50 [8] [µg/mL] | pseudovirus neutralization IC50 [9] [µg/mL] | pseudovirus neutralization IC50 [10] [µg/mL] | pseudovirus neutralization IC50 [11] [µg/mL]
1 | BD56-880 (protein) chain 1: QVQLVQSGAEVKKPGSSVKVSCKASGGAFSSYAISWVRQAPGQGLEWMGGIIPIFGTANYAQKFQGRVTMTADESTSTVYMDLSSLRSEDTAVYYCVREGGGSYLGDHYYYGMDVWGQGTTVTVSS chain 2: QSVLTQPPSVSGAPGQRVTISCTGSSSNIGADYDVHWYQQLPGTAPKLLIYGNSNRPSGVPDRFSGSKSGTSASLAITGLQAEDEADYYCQSYDSSLSGSKVFGTGTKVTVL | 0.00513 | > 10 | > 10 | > 10 | > 10 | > 10 | > 10 | > 10 | > 10 | > 10 | > 10
2 | BD56-893 (protein) chain 1: EVQLVESGGGLVQPGRSLRLSCAASGFTFDDYAMHWVRQAPGKGLEWVSSISWNTGSIGYADSVKGRFTISRDNAKNSLYLQMNSLRAEDTALYYCAKDLSYCSDDSCYSGAPYYYGMDVWGQGTTVTVSS chain 2: DIQMTQSPSSLSASVGDRVTITCQASQDISNYLNWYQQKPGKAPNLLIYDASNLETGVPSRFSGSGSGTDFTFTISSLQPEDIATYYCQQSDNLPLTFGGGTKVEIK | 0.0103 | 0.00382 | > 10 | > 10 | > 10 | > 10 | > 10 | > 10 | > 10 | > 10 | > 10
3 | BD56-894 (protein) chain 1: QVQLQESGPGLVKPSQTLSLTCTVSGGSISSGDYYWNWIRQPPGKSLEWIGYIYYSGSTYYNPSLKSRVTISVDTSKNQFSLKLSSVTAADTAVYYCARDSEYDILTGYGHWYFDLWGRGTLVTVSS chain 2: QSALTQPASVSGSPGQSITISCTGTSSDVGTYTLVSWYQQHPGKAPKLMIYEVSKRPSGVSNRFSGSKSGNTASLKISGLQAEDEADYYCCSYVSSSPVFGGGTKLTVL | 0.00897 | > 10 | > 10 | > 10 | > 10 | > 10 | > 10 | > 10 | > 10 | > 10 | > 10
4 | BD56-274 (protein) chain 1: QVQLQESGPGLVKPSGTLSLTCAVSGGSISSSHWWSWVRQPPGKGLEWIGEIYPSGSTNYNPSLKSRVTISVDKSKNQFSLKLSSVTAADTAVYYCARIHYFDGSGYQNPYDAFDIWGQGTMVTVSS chain 2: QSALTQPASVSGSPGQSITISCTGTSSDVGGYNFVSWYQQHPDKAPKLIIYDVIERPSGVSNRFSGSKSGNTASLTISGLQAEDEADYYCSSYTTSSILFGGGTKLTVL | 0.000785 | 0.0011 | 1.06 | > 10 | > 10 | > 10 | > 10 | > 10 | > 10 | > 10 | > 10
5 | XG-017 (protein) chain 1: EVQLVESGGGLVQPGGSLRLSCAASGIIVSRNYMTWVRQAPGKGLEWVSVIYSGGSTFYADSVKGRFTISRDNSKNTLYLQMNSLRAEDTAVYYCARGEGWDLPFDFWGQGTLVSVSS chain 2: QSALTQPPSASGSPGQSVTISCTGTSSDVGGYNYVSWYQQEPGKAPKLMIYEVSKRPSGVPDRFSGSKSGNTASLTVSGLQAEDEAAYYCSSYAGSNNLMFGGGTKLTVL |  |  |  |  |  |  | > 10 |  |  | > 10 | 
6 | BD-599 (protein) chain 1: EVQLVESGGGLVQPGGSLRLSCAASGFTVSRNYMSWVRQAPGKGLEWVSVIYSGGTTHYADSVKGRFTISRHNSKNTLYLQMNSLRAEDTAVYYCARDLVVYGMDVWGQGTTVTVSS chain 2: DIQLTQSPSFLSASVGDRVTITCRASQGISSYLAWYQQKPGKAPKLLIYAASTLQSGVPSSFSGSGSGTEFTLTISSLQPEDFATYYCQQLNSYPLTFGGGTKVEIK |  |  |  |  |  |  |  |  |  |  | 0.15

Reference: the supplement of paper PMC9931576
